{"source": "PubChem BioAssay AID624099 (ICCB-Longwood, 2012)", "screen": "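Human genes that papillomavirus E2 requires to repress the HPV18 LCR promoter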 (primary screen)", "system": "human C33A cervical carcinoma cells (HPV-negative) stably expressing BPV1 E2 and an HPV18 LCR luciferase reporter", "reagent": "siRNA pool against human genes, 40 nM", "duration": "72 h", "measurement": "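HPV18 LCR reporter light per well, converted to plate-wise z-scores that exclude control wells, and averaged over triplicate plates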", "reading the numbers": "mean z-score and z-score: higher = stronger reporter signal, weaker E2 silencing", "call rule": "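Hit if mean z-score reaches 2 and two or more of three replicate z-scores also reach 2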", "note": "Here is a random part of about 21,000 deposited reagents. Of all reagents, 497 (2.4%) are marked active. 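Higher z means weaker E2 silencing; only reporter increases were scored, and knock-downs that hurt cell survival may mask genuine repressor factors.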 Entries without a mark were called inactive."}
{"Target gene": "PAX1", "PubChem SID": "SID134323859", "mean z-score": -0.31, "z-score, replicate A": -0.34, "z-score, replicate B": -0.19, "z-score, replicate C": -0.38}
{"Target gene": "MILIP", "PubChem SID": "SID134328753", "mean z-score": 0.82, "z-score, replicate A": 1.11, "z-score, replicate B": 0.68, "z-score, replicate C": 0.67}
{"Target gene": "SLC38A4", "PubChem SID": "SID134312607", "mean z-score": 0.7, "z-score, replicate A": 0.41, "z-score, replicate B": 0.8, "z-score, replicate C": 0.88}
{"Target gene": "AFG2A", "PubChem SID": "SID134313291", "mean z-score": -0.57, "z-score, replicate A": -0.92, "z-score, replicate B": -0.32, "z-score, replicate C": -0.48}
{"Target gene": "ZNF697", "PubChem SID": "SID134327073", "mean z-score": 1.21, "z-score, replicate A": 1.57, "z-score, replicate B": 1.23, "z-score, replicate C": 0.83}
{"Target gene": "RALGPS1", "PubChem SID": "SID134313131", "mean z-score": 0.61, "z-score, replicate A": 0.61, "z-score, replicate B": 0.6, "z-score, replicate C": 0.61}
{"Target gene": "SYNJ1", "PubChem SID": "SID134323271", "mean z-score": -0.52, "z-score, replicate A": -0.65, "z-score, replicate B": -0.51, "z-score, replicate C": -0.4}

2 entries from above, arranged by “z-score, replicate A”, lowest first.
{"Target gene": "AFG2A", "PubChem SID": "SID134313291", "mean z-score": -0.57, "z-score, replicate A": -0.92, "z-score, replicate B": -0.32, "z-score, replicate C": -0.48}
{"Target gene": "ZNF697", "PubChem SID": "SID134327073", "mean z-score": 1.21, "z-score, replicate A": 1.57, "z-score, replicate B": 1.23, "z-score, replicate C": 0.83}

Next results:
{"Target gene": "PIGQ", "PubChem SID": "SID134316222", "mean z-score": -1.14, "z-score, replicate A": -1.03, "z-score, replicate B": -1.05, "z-score, replicate C": -1.35}
{"Target gene": "ETNK2", "PubChem SID": "SID56478982", "mean z-score": -1.13, "z-score, replicate A": -1, "z-score, replicate B": -1.47, "z-score, replicate C": -0.91}
{"Target gene": "SLC13A1", "PubChem SID": "SID134312439", "mean z-score": 0.77, "z-score, replicate A": 0.68, "z-score, replicate B": 0.6, "z-score, replicate C": 1.02}
{"Target gene": "RABGAP1L", "PubChem SID": "SID134324816", "mean z-score": 0.6, "z-score, replicate A": 0.37, "z-score, replicate B": 0.52, "z-score, replicate C": 0.9}
{"Target gene": "LOC402098 (retired record)", "PubChem SID": "SID134327214", "mean z-score": -1.28, "z-score, replicate A": -1.1, "z-score, replicate B": -1.58, "z-score, replicate C": -1.17}
